Compound potency records, mixed from different reports. Data source: NIAID ChemDB in PubChem.

Common to all: growth or infection tests; agent: HIV-2; method: MTT; measure: EC50

Rows are shuffled and stem from different studies.

smiles,cells,strain or isolate,result
C#Cc1ccc(Nc2nccc(Oc3c(C)cc(-c4cn(CC(=O)Nc5ccc(F)cc5)nn4)cc3C)n2)cc1,MT-4,ROD,>1.41 µM
CCc1c(C(C)CC2CCCCC2)nc(SCC(=O)c2ccc(OC)cc2)[nH]c1=O,MT-4,ROD,31 µM
O=S1(=O)N=C(Nc2ccc(Br)cc2)C=C(Cc2ccccc2)N1,MT-4,ROD,>163 µM
O=S1(=O)NC(Cc2cccc3ccccc23)=CC(=NC2CCN(Cc3ccc(F)cc3)CC2)N1,MT-4,ROD,>120 µM
C#Cc1ccc(Nc2nccc(Oc3c(C)cc(-c4cn(Cc5cccc(C(=O)OC)c5)nn4)cc3C)n2)cc1,MT-4,ROD,>4.78 µM
Nc1nc(-c2ccc(Br)cc2Br)c(SCC(=O)Nc2ccccc2N)s1,MT-4,ROD,>33.04 µM
CC(CC1CCCCC1)c1cc(=O)[nH]c(SCC(=O)c2ccccc2)n1,MT-4,ROD,151 µM
O=S1(=O)NC(Cc2ccc(Cl)cc2Cl)=CC(=NC2CCN(Cc3c(Cl)cccc3Cl)CC2)N1,MT-4,ROD,>48.2 µM
O=c1[nH]cnc2c1ncn2C1CC[C@@H](CO)O1,MT-4,ROD,2.71 µM
Cn1ncc2c1S(=O)(=O)N(CCc1ccccc1)C(=O)N2CCc1ccccc1Br,MT-4,ROD,>271.1 µM
Cc1cc(C)c(Oc2ncc(N)c(Nc3ccc(C#N)cc3)n2)c(C)c1,MT-4,ROD,>10.45 µM
CCc1c(Cc2cccc3ccccc23)nc(N(CC)CC)[nH]c1=O,MT-4,ROD,>3.79 µM
COc1ccc(C(=O)CSc2nc(C(C)CC3CCCCC3)c(C)c(=O)[nH]2)cc1,MT-4,ROD,43 µM
Cc1cc(C)cc(C(=O)c2cccnc2Oc2ccc(C#N)cc2)c1,MT-4,ROD,>31.61 µM
Nc1ccn([C@H]2CC[C@@H](CO)O2)c(=O)n1,MT-4,ROD,1.4 µM
O=S1(=O)N=C(Nc2ccccc2Cl)C=C(Cc2cccc3ccccc23)N1,MT-4,ROD,>154 µM
O=S1(=O)NC(Cc2cccc3ccccc23)=CC(=NC2CCN(Cc3c(Cl)cccc3Cl)CC2)N1,MT-4,ROD,>54.73 µM
C#Cc1ccc(Nc2nccc(Oc3c(C)cc(-c4cn(CCc5ccccc5)nn4)cc3C)n2)cc1,MT-4,ROD,>5.69 µM
O=S1(=O)N=C(Nc2ccccc2Cl)C=C(Cc2ccccc2)N1,MT-4,ROD,>182 µM
Cn1ncc2c1S(=O)(=O)N(CCc1ccccc1)C(=O)N2CCc1ccc(Cl)cc1,MT-4,ROD,>56.2 µM
C#Cc1ccc(Nc2nccc(Oc3c(C)cc(-c4cn(Cc5ccccc5[N+](=O)[O-])nn4)cc3C)n2)cc1,MT-4,ROD,>7.22 µM
CCN(CC)c1nc(Cc2cccc3ccccc23)c(C(C)C)c(=O)[nH]1,MT-4,ROD,>183 µM
C#Cc1ccc(Nc2nccc(Oc3c(C)cc(-c4cn(Cc5ccc([N+](=O)[O-])cc5)nn4)cc3C)n2)cc1,MT-4,ROD,>160 µM
CC(CC1CCCCC1)c1cc(=O)[nH]c(SCC(=O)c2ccc(F)cc2)n1,MT-4,ROD,108 µM
COP(=O)(O)C[C@H](NP(=O)(O)OC[C@@H]1C=C[C@H](n2cc(C)c(=O)[nH]c2=O)O1)C(=O)O,MT-4,ROD,0.19 µM
Cc1cc(C)cc(C(=O)c2cccnc2Nc2ccc(CC#N)cc2)c1,MT-4,ROD,>97.48 µM
Cc1ccnc2c1NC(=O)c1cccnc1N2C1CC1,MT-4,ROD,>15.02 µM
Cc1c(Cc2cccc3ccccc23)nc(N2CC2)[nH]c1=O,MT-4,ROD,351 µM
Cc1cc(C)cc(C(=O)c2cccnc2Oc2ccc(C=O)cc2)c1,MT-4,ROD,>33.65 µM
CC(C)c1nc(C(=O)NCc2ccc(F)cc2)c([O-])c(=O)n1C.CC(C)c1nc(C(=O)NCc2ccc(F)cc2)c([O-])c(=O)n1C.[Mg+2],MT-4,ROD,0.026 µM
Cc1ccc(CN=C2C=C(Cc3ccc4ccccc4c3)NS(=O)(=O)N2)cc1,MT-4,ROD,>144 µM
Cn1ncc2c1S(=O)(=O)N(CCc1ccccc1)C(=O)N2CCC#N,MT-4,ROD,>209.4 µM
CCc1c(OCc2cccc3ccccc23)cc(C)oc1=O,CEM,ROD,>0.4 µM
Cc1cc(C)c(Oc2ncc([N+](=O)[O-])c(Nc3ccc(C#N)cc3)n2)c(C)c1,MT-4,ROD,≥252 µM
COc1ccc(NC2=NS(=O)(=O)NC(Cc3ccccc3)=C2)cc1,MT-4,ROD,>318 µM
Nc1ccccc1NC(=O)CSc1sc(Cl)nc1-c1ccc(Br)cc1Br,MT-4,ROD,>109 µM
O=C(O)c1c[nH]c2ccc(Cc3ccccc3)cc2c1=O,MT-4,ROD,>19 µM
Cc1cn([C@H]2C=C[C@@H](COP(=O)(O)N[C@@H](CC(=O)O)C(=O)O)O2)c(=O)[nH]c1=O,CEM/TK-,ROD,184 µM
CCCCNc1nc(Cc2cccc3ccccc23)c(CC)c(=O)[nH]1,MT-4,ROD,>33.3 µM
O=c1[nH]cnc2c1ncn2[C@H]1CC[C@@H](CO)O1,MT-4,ROD,16 µM
Cc1ccnc2c1NC(=O)c1cccnc1N2C1CC1,MT-4,RES056,≥7.59 µM
CCN(CC)c1nc(Cc2cccc3ccccc23)cc(=O)[nH]1,MT-4,ROD,>72.55 µM
O=C(CSc1sc(Cl)nc1-c1ccc(Br)cc1Br)Nc1ccccc1Cl,MT-4,ROD,>17.45 µM
O=C(O)c1cn(CCO)c2ccc(Cc3ccccc3)cc2c1=O,MT-4,ROD,4 µM
N#Cc1ccc(Nc2nc(Oc3c(Cl)cc(Cl)cc3Cl)ncc2[N+](=O)[O-])cc1,MT-4,ROD,>25.2 µM
Cc1cc(N[C@@H](C)c2cccc3ccccc23)cc(=O)o1,CEM,ROD,>10 µM
C#Cc1ccc(Nc2nccc(Oc3c(C)cc(-c4cn(CC(=O)Nc5ccc(Br)cc5)nn4)cc3C)n2)cc1,MT-4,ROD,>19.78 µM
Cc1cc(C#N)cc(C)c1Oc1ncc([N+](=O)[O-])c(Nc2ccc(C#N)cc2)n1,MT-4,ROD,≥274 µM
Cc1c(Cc2cccc3ccccc23)nc(NCc2ccccc2)[nH]c1=O,MT-4,ROD,>33.48 µM
O=[N+]([O-])c1ccc(CN2CCC(N=C3C=C(Cc4cccc5ccccc45)NS(=O)(=O)N3)CC2)cc1,MT-4,ROD,>104 µM
Cn1ncc2c1S(=O)(=O)N(CCc1ccccc1)C(=O)N2CCc1ccc(Cl)cc1Cl,MT-4,ROD,>277.2 µM
Cc1cc(N(Cc2cccc3ccccc23)C(=O)C(Cl)Cl)cc(=O)o1,CEM,ROD,≥10 µM
N#Cc1ccc(NC2=NS(=O)(=O)NC(Cc3cccc4ccccc34)=C2)cc1,MT-4,ROD,>254 µM
Cc1cn([C@H]2C=C[C@@H](COP(=O)(O)N(CC(=O)O)CC(=O)O)O2)c(=O)[nH]c1=O,CEM,ROD,2.13 µM
CCc1c(CCC2CCCCC2)nc(SCC(=O)c2ccc(F)cc2)[nH]c1=O,MT-4,ROD,164 µM
COc1ncccc1C(=O)c1cccc(C#N)c1,MT-4,ROD,>255 µM
Cc1cc([N+](=O)[O-])ccc1NC(=O)CSc1sc(N)nc1-c1ccc(Br)cc1Br,MT-4,ROD,>30.81 µM
N#Cc1ccc(Nc2nc(Oc3c(Cl)cc(Cl)cc3Cl)ncc2N)cc1,MT-4,ROD,>26.48 µM
O=S1(=O)NC(Cc2ccc(Cl)cc2Cl)=CC(=NC2CCN(Cc3ccc(F)cc3)CC2)N1,MT-4,ROD,>103 µM
Cc1ccc(CCN2C(=O)N(CCc3ccc(C)cc3)S(=O)(=O)c3c2cnn3C)cc1,MT-4,ROD,>304.9 µM
O=S1(=O)N=C(Nc2ccccc2)C=C(Cc2cccc3ccccc23)N1,MT-4,ROD,>158 µM
O=c1[nH]cnc2c1ncn2[C@H]1CC[C@@H](CO)O1,MT-4,ROD,19 µM
O=S1(=O)NC(Cc2cccc3ccccc23)=CC(=NC2CCN(Cc3ccccc3)CC2)N1,MT-4,ROD,>117 µM
C#Cc1ccc(Nc2nccc(Oc3c(C)cc(-c4cn(Cc5ccc(C#N)cc5)nn4)cc3C)n2)cc1,MT-4,ROD,>7.17 µM

The last 4 rows once more:

O=S1(=O)N=C(Nc2ccccc2)C=C(Cc2cccc3ccccc23)N1 ; cells: MT-4 ; strain or isolate: ROD ; result: >158 µM
O=c1[nH]cnc2c1ncn2[C@H]1CC[C@@H](CO)O1 ; cells: MT-4 ; strain or isolate: ROD ; result: 19 µM
O=S1(=O)NC(Cc2cccc3ccccc23)=CC(=NC2CCN(Cc3ccccc3)CC2)N1 ; cells: MT-4 ; strain or isolate: ROD ; result: >117 µM
C#Cc1ccc(Nc2nccc(Oc3c(C)cc(-c4cn(Cc5ccc(C#N)cc5)nn4)cc3C)n2)cc1 ; cells: MT-4 ; strain or isolate: ROD ; result: >7.17 µM

ECn: concentration that inhibits the pathogen or its effect by n%.